{"source": "paper PMC4948679", "target": "superhumanized Ab2/3H6 variant with the single backmutation T98R (BM07)", "experiment": "BLI; ForteBio Octet QK; protein A biosensors, Ab2/3H6 variants captured from crude concentrated culture supernatants (1200 s), blocked with 100 µg/ml purified su3H6 (1200 s); purified 2F5 at 100 µg/ml in solution, association 600 s, dissociation 1200 s; kinetics buffer", "data": [{"substance": "broadly neutralizing anti-HIV-1 antibody 2F5", "values": [{"measurement": "response level", "result": 1.4, "unit": "nm"}]}]}
